Compound potency records, mixed from different reports. Data source: NIAID ChemDB in PubChem.

Shared fields: whole-cell or culture tests; agent: Mycobacterium avium

ECn is the concentration giving n% inhibition of infection, replication or growth. Rows are shuffled and stem from different studies. A number after MIC or MFC names an inhibition level or a share of isolates. An empty or dashed field is not shown.

| structure | measure | strain | method | result |
|---|---|---|---|---|
| O=c1oc2ccc(Cl)cc2c(=O)n1-c1ccccc1 | MIC | MY330/88 | - | 31 µM |
| Cc1nc2scc(-c3ccco3)c2c(=O)n1NC(=O)c1cccs1 | MIC | CNCTC MY330/88 | - | 45 µM |
| S=c1oc2ccc(Cl)cc2c(=S)n1-c1ccc(Cl)c(Cl)c1 | MIC | MY330/88 | - | 16 µM |
| O[C@@H](c1cc(C(F)(F)F)nc2c(C(F)(F)F)cccc12)[C@@H]1CCCCN1 | MIC90 | MAC 101 | broth dilution / radiometric | 64 µg/mL |
| CCCCCCOc1ccccc1NC(=O)OCC[NH+]1CCCC1 | MIC | MY330/88 | - | 62.5 µM |
| CCCCc1ccc(NC(=S)Nc2ccc(O)cc2)cc1 | MIC | 724 | - | 10 µg/mL |
| CCCCCCCCCOc1cccc(NC(=O)OCCN2CCCCC2)c1 | MIC | MY330/88 | - | 16 µM |
| CCOC1Oc2ccc(C)cc2C(=O)/C1=C/Nc1nc2ccccc2s1 | MIC | MY 80/72 | - | >100 µg/mL |
| COc1ccc(/C=N/n2c(C)nc3scc(-c4ccco4)c3c2=O)cc1 | MIC | CNCTC MY330/88 | - | 14 µM |
| CCCOc1ccc(NC(=O)OCCN(C)C)cc1 | MIC | MY330/88 | - | 500 µM |
| O=C1NC(Nc2cccc(Cl)c2)=N/C1=C\c1ccccc1Cl | MIC | - | - | >12.5 µg/mL |
| O=c1oc2ccc(Cl)cc2c(=S)n1-c1cccc(Cl)c1 | MIC | MY330/88 | - | 31 µM |
| O=C1NC(Nc2ccc(Cl)cc2)=N/C1=C\c1ccccc1Cl | EC50 | - | - | <12.5 µg/mL |
| CCCCCCCCN(CCCCCCCC)C(=O)NC(CCC(=O)O)(CCC(=O)O)CCC(=O)O | MIC | VA14 | - | 36 µg/mL |
| CCCCCCCCCCCCCCCCCCNC(=S)NCCCC(=O)OC | MIC | 724 | - | >20 µg/mL |
| CCCCCCCN(CCCCCCC)C(=O)NC(CCC(=O)O)(CCC(=O)O)CCC(=O)O | MIC | VA14 | - | 18 µg/mL |
| O=C1NC(Nc2ccc(Cl)cc2)=N/C1=C\c1ccc(Cl)cc1Cl | EC50 | - | - | <12.5 µg/mL |
| CCNC1Oc2cc(Cl)ccc2C(=O)/C1=C/Nc1ccc2[nH]c(=S)sc2c1 | MIC | MY 80/72 | - | 5 µg/mL |
| O=C1NC(=Nc2ccc(Cl)cc2Cl)N/C1=C\c1ccc(Cl)cc1Cl | EC50 | - | - | >12.5 µg/mL |
| N#CCC(=O)N/N=C/c1coc2ccccc2c1=O | MIC | MY 80/72 | - | >50 µg/mL |
| O=c1oc2ccc(Cl)cc2c(=O)n1-c1ccc(Br)cc1 | MIC | MY330/88 | - | 8 µM |
| CCCCCCCCCCCCC(CCCCCCCCCCCC)NC(=O)NC(CCC(=O)O)(CCC(=O)O)CCC(=O)O | MIC | VA14 | - | 36 µg/mL |
| CCCCc1ccc(NC(=S)Nc2ccc(SCCC)cc2)cc1 | MIC | 724 | - | 5 µg/mL |
| C[C@H]1COc2c(N3CCN(C)CC3)c(F)cc3c(=O)c(C(=O)O)cn1c23 | MIC | 14-2 | - | 0.5 µg/mL |
| CCCCCCCOc1ccccc1NC(=O)OCCN1CCOCC1 | MIC | MY330/88 | - | 62.5 µM |
| O=C1NC(=NCc2ccccc2)N/C1=C\c1ccc(Cl)cc1 | MIC | - | - | >12.5 µg/mL |
| CCCCCOc1ccccc1NC(=O)OCCN(C)C | MIC | MY330/88 | - | 62.5 µM |
| O[C@H](c1cc(C(F)(F)F)nc2c(C(F)(F)F)cccc12)C1CCCCN1 | MIC90 | MAC 101 | broth dilution / radiometric | 32 µg/mL |
| Cc1ccc2occ(/C=N/NC(=O)c3ccccc3O)c(=O)c2c1 | MIC | MY 80/72 | - | >100 µg/mL |
| CCCCCCCCCCCCCCCCCCCCCCC(=O)NC(C)(CCC(=O)O)CCC(=O)O | MIC | VA14 | - | 144 µg/mL |
| Cc1nc2scc(-c3ccco3)c2c(=O)n1/N=C/C1CC1 | MIC | CNCTC MY330/88 | - | 59 µM |
| CCNC1Oc2cc(C)c(C)cc2C(=O)/C1=C/Nc1ccc2[nH]c(=S)sc2c1 | MIC | MY 80/72 | - | >5 µg/mL |
| Cc1nc2scc(-c3ccco3)c2c(=O)n1/N=C/c1ccc(F)cc1 | MIC | CNCTC MY330/88 | - | 12 µM |
| CC[C@H]1OC(=O)[C@H](C)[C@@H](O[C@H]2C[C@@](C)(OC)[C@@H](O)[C@H](C)O2)[C@H](C)[C@@H](O[C@@H]2O[C@H](C)C[C@H](N(C)C)[C@H]2O)[C@](C)(OC)C[C@@H](C)C(=O)[C@H](C)[C@@H](O)[C@]1(C)O | MIC50 | MAC 101 | broth dilution / radiometric | 2 µg/mL |
| Cc1nc2scc(-c3ccco3)c2c(=O)n1NC(=O)c1ccc(F)cc1 | MIC | CNCTC MY330/88 | - | 25 µM |
| CCCCCCCOc1ccc(NC(=O)OCCN2CCCCC2)cc1 | MIC | MY330/88 | - | 16 µM |
| Cc1nc2scc(-c3ccco3)c2c(=O)n1/N=C/c1ccccc1 | MIC | CNCTC MY330/88 | - | 48 µM |
| O=c1oc2ccc(Cl)cc2c(=O)n1-c1ccc(Cl)c(Cl)c1 | MIC | MY330/88 | - | 8 µM |
| CCCCCCCCCCN(CCCCCCCCCC)C(=O)NC(CCC(=O)O)(CCC(=O)O)CCC(=O)O | MIC | VA14 | - | 18 µg/mL |
| CCCCc1ccc(NC(=S)Nc2ccc(OCCC(C)C)cc2)cc1 | MIC | 724 | - | 5 µg/mL |
| COc1ccc(C(=O)Nn2c(C)nc3scc(-c4ccco4)c3c2=O)cc1 | MIC | CNCTC MY330/88 | - | 20 µM |

A second listing of 3 rows from above:

structure | measure | strain | method | result
O=C1NC(=Nc2ccc(Cl)cc2Cl)N/C1=C\c1ccc(Cl)cc1Cl | EC50 | - | - | >12.5 µg/mL
CCCCCOc1ccccc1NC(=O)OCCN(C)C | MIC | MY330/88 | - | 62.5 µM
CCCOc1ccc(NC(=O)OCCN(C)C)cc1 | MIC | MY330/88 | - | 500 µM